In general, EC50 refers to the concentration that produces a half-maximal response.

Amino acid sequences for entries named in this document (tags omitted). A change or cut given only in a name is not applied to a line headed by its entry.
UniProt P15328: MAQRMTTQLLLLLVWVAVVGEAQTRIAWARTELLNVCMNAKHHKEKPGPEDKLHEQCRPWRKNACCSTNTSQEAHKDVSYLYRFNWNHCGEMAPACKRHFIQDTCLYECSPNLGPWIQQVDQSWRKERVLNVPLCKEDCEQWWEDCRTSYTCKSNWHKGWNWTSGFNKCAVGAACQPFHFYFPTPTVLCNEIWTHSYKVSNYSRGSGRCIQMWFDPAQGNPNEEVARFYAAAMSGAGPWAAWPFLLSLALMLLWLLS

Here are results for one substance from US8470822B2, “Folate mimetics and folate-receptor binding conjugates thereof” (Purdue Research Foundation, priority 2001, dated 2013).

The assay has as its target folate receptor on KB cells (Homo sapiens, UniProt P15328). The assay is described as follows: Relative binding affinity: competition with 3H-folic acid for binding to KB cells.

For “pteroylhydrazido-benzenetetracarboxylic acid-diacetoxyscirpenol”, the “relative binding activity compared to folic acid” value (100 nM 3H-folic acid, 15 minutes on ice, folic acid set to 1) is 0.60. Moreover, the concentration for a half-maximal effect (EC50) (read-out: EC50 (displacement of 3H-folic acid bound to folate receptor), 100 nM 3H-folic acid, 15 minutes on ice) is 116 nM.
